The source of these data is paper PMC3689846 (Science (New York, N.Y.), 2013).

The target in assay [1] is eOD-GT6 (germline-targeting engineered outer domain of gp120) (HIV-1 isolate HXB2, engineered outer domain eOD-GT6). In words: SPR. On the technique in general: Surface plasmon resonance follows binding to a sensor surface in real time, without labels.
The target of assay [2] is eOD-GT3 (HIV-1 strain HxB2). In words: SPR.

For “GL-VRC01 (predicted germline precursor of VRC01) (antibody)”, the Kd came to 44 nM in assay [1] and 220 nM in assay [2].

In general, Kd refers to the equilibrium constant for the complex coming apart.
